# HIV-1 NL4-3 point mutations in Nef: replication capacity

The measurements come from Al-Mawsawi et al. 2014 (doi:10.1186/s12977-014-0124-6).

Protein: Nef of HIV-1 NL4-3, numbered from its first residue.
From base 9076 on, changes also alter the 3' U3.
Effects on overlapping genes or RNA elements are not listed.

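Random point mutant libraries of HIV-1 NL4-3, one for each of seven fragments, were passaged in CEM T lymphocytes. Sequencing gave the RC index: frequency after two rounds over frequency in the input plasmid.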

RC index: lower means poorer replication; rough cut-offs are 0.1 (lethal) and 0.2 (tolerated). A change reads original residue, position, new residue. Input reads are the counts in the plasmid library. Clones carried about five changes per kilobase, which can drag down the index of neutral changes. Base changes are numbered along pNL4-3. The authors read an index above 1 as above wild type (1.9% of all changes in the genome).

mutation	base	input reads	replication capacity index
S187I	G9346T	263	0.995
Q73L	A9004T	277	0.255
V180L	G9324C	140	0.652
K158I	A9259T	406	0.677
F203L	C9395G	40	0.549
I43N	T8914A	160	0.591
S88C	A9048T	276	0.676
F191L	T9359G	32	0.106
L110I	C9114A	477	1.04
D151E	T9239A	205	0.712
L110R	T9115G	53	0.544
N52I	A8941T	294	0.797
T117R	C9136G	171	0.585
P78S	C9018T	326	1.04
W57C	G8957C	98	1.94
V133F	G9183T	87	0.734
A84V	C9037T	492	0.563
E177K	G9315A	231	1.40
P136Q	C9193A	300	0.608
V70D	T8995A	455	0.521
Y143S	A9214C	68	0.517
H171Q	T9299A	277	0.814
V168L	G9288C	76	0.652
M173V	A9303G	423	0.721
G96A	G9073C	61	0.851
P122R	C9151G	89	0.778
L145V	C9219G	45	0.927
F185L	T9341G	64	0.449
L145Q	T9220A	331	0.575
A56T	G8952A	284	0.835
P131A	C9177G	79	0.438
F90L	T9056G	48	0.240
K82T	A9031C	107	0.910
S45C	A8919T	497	0.727
M79T	T9022C	227	0.298
S169R	C9293A	128	0.967
P150T	C9234A	105	0.956
N205Y	A9399T	209	0.582
H102N	C9090A	171	0.664
K4M	A8797T	670	0.715
A53S	G8943T	91	0.806
W5R	T8799C	409	0.0643
V146A	T9223C	183	0.669
G99A	G9082C	46	0.460
A156V	C9253T	368	0.910
F90V	T9054G	109	0.229
K94E	A9066G	272	0.559
C206W	C9404G	45	0.600
S169I	G9292T	112	0.663
Q125R	A9160G	399	0.588
K4N	G8798T	130	0.937
M1L	A8787T	329	0.00421
H193N	C9363A	187	0.271
P200R	C9385G	54	0.188
S103F	C9094T	159	0.955
N161D	A9267G	253	0.505
V194L	G9366T	108	0.688
F90C	T9055G	125	0.369
A23D	C8854A	97	0.0968
W113G	T9123G	110	0.717
P78T	C9018A	59	0.741
E177A	A9316C	55	0.427
V70I	G8994A	301	0.614
Q61R	A8968G	312	0.737
E182Q	G9330C	72	0.688

Extract of 8 entries:

* V180L (base G9324C, input reads 140) = 0.652
* L110I (base C9114A, input reads 477) = 1.04
* P78S (base C9018T, input reads 326) = 1.04
* L145V (base C9219G, input reads 45) = 0.927
* S169I (base G9292T, input reads 112) = 0.663
* H102N (base C9090A, input reads 171) = 0.664
* P122R (base C9151G, input reads 89) = 0.778
* M1L (base A8787T, input reads 329) = 0.00421